PubChem BioAssay AID504761 | Drosophila RNAi Screening Center | 2011
The deposit covers about 22,000 reagents; this is a random part of those with a known target gene and a result. Of all reagents, 116 (0.52%) are marked active. 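Calls depend on retest data that are not deposited; infection was ranked per plate without normalising between plates; the unit of the infection score is not given.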 Raw values vary from plate to plate and are shown uncorrected. Reagent sequences are not shown. Not stated in the record: the amount of reagent, the time to read-out.

Assay: 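Fly genes whose silencing reduces dengue virus type 2 infection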 (primary screen)
Cell system: D.Mel-2 cells from Drosophila
Reagent: long dsRNA against Drosophila genes
Conditions: infection with dengue virus type 2; dose and infection time not stated
Measurement: 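Cells stained for dengue envelope protein and imaged; percent of infected cells per well on duplicate plates, ranked by infection, with stained nuclei counted for cell number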
Scale: infection score: higher = more virus-infected cells; cell count: higher = more cells in the well
Active means: 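Low infection ranks in the two replicates (chance level up to 0.065) followed by a retest with a 1.5-fold or larger significant decrease, p below 0.05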
Calls: active = confirmed: knock-down lowers infection; inactive = not picked or not confirmed

| Gene | DRSC id | infection score, replicate 1 | infection score, replicate 2 | cell count, replicate 1 | cell count, replicate 2 | Outcome |
| --- | --- | --- | --- | --- | --- | --- |
| por | DRSC20362 | 3.1 | 6.96 | 5896 | 6218 | inactive |
| por | DRSC29877 | 11.3 | 14 | 5561 | 5875 | inactive |
| CG3597 | DRSC00617 | 7.13 | 3.05 | 6463 | 6395 | inactive |
| CG3597 | DRSC24376 | 1.13 | 2.27 | 6832 | 6071 | inactive |
| Prx1 | DRSC10741 | 1.44 | 6.37 | 6735 | 6417 | inactive |
| Prx1 | DRSC24401 | 4.74 | 1.12 | 6097 | 6156 | inactive |
| CG2225 | DRSC03722 | 27.2 | 17.8 | 6082 | 6359 | inactive |
| CG2225 | DRSC03723 | 14.5 | 18.4 | 6201 | 6097 | inactive |
| Ski6 | DRSC02491 | 5.55 | 10.3 | 5463 | 6038 | inactive |
| CG32320 | DRSC21514 | 0.86 | 4.96 | 5897 | 6387 | inactive |
| CG32320 | DRSC28106 | 40.9 | 25.3 | 5992 | 5965 | inactive |
| CG13460 | DRSC10007 | 1.93 | 2.55 | 6372 | 6618 | inactive |
| CG5556 | DRSC00687 | 0.97 | 7.5 | 6477 | 6682 | inactive |
| CG12105 | DRSC08255 | 0.63 | 3.42 | 477 | 876 | inactive |
| CG12105 | DRSC24635 | 7.57 | 14 | 3038 | 6318 | inactive |
| NaCP60E | DRSC04307 | 33.6 | 45.4 | 6265 | 5311 | inactive |
| NaCP60E | DRSC21351 | 4.29 | 14.4 | 5717 | 6305 | inactive |
| NaCP60E | DRSC26120 | 2.89 | 4.56 | 6158 | 5661 | inactive |
| NaPi-III | DRSC10893 | 8.3 | – | 5966 | 229 | inactive |
| NaPi-III | DRSC22953 | 2.22 | 1.84 | 5902 | 6470 | inactive |
| NaPi-III | DRSC28299 | 11 | 9.5 | 5491 | 3380 | inactive |
| NaPi-III | DRSC28977 | 4.92 | 18.4 | 5018 | 4663 | inactive |
| CG4781 | DRSC04488 | 9.03 | 3.24 | 6082 | 6916 | inactive |
| Sse | DRSC09746 | 4.73 | 6.16 | 3426 | 3847 | inactive |
| CG2614 | DRSC02711 | 10.5 | 3.23 | 6480 | 6956 | inactive |
| CG10561 | DRSC02068 | 31.9 | 20.6 | 6337 | 6659 | inactive |
| fsd | DRSC06166 | 6.27 | 12.9 | 6617 | 6170 | inactive |
| CG31559 | DRSC12172 | 8.68 | 2.9 | 6339 | 6204 | inactive |
| CG31559 | DRSC12270 | 4.27 | 3.12 | 6227 | 6632 | inactive |
| GlyRS | DRSC10711 | 3.82 | 8.56 | 6234 | 6119 | inactive |
| Sry-beta | DRSC16868 | 3.36 | 6.86 | 6257 | 6927 | inactive |
| Sry-beta | DRSC24321 | 6.26 | 3.77 | 6434 | 6888 | inactive |
| RpL15 | DRSC20963 | 1.08 | 1.66 | 1299 | 1262 | inactive |
| dlp | DRSC10472 | 2.65 | 4.14 | 6072 | 5923 | inactive |
| dlp | DRSC23803 | 0.73 | 2.41 | 6442 | 6090 | inactive |
| Set | DRSC16861 | 13.2 | 12.9 | 6252 | 6262 | inactive |
| lectin-46Cb | DRSC06611 | 3.07 | 8.14 | 6910 | 6054 | inactive |
| lectin-46Cb | DRSC25309 | 9.34 | 3.19 | 6404 | 6112 | inactive |
| udd | DRSC06720 | 0.99 | 5.38 | 6533 | 6783 | inactive |

Taken from above:
Result of CG2225 [DRSC03722] in “infection score, replicate 2”: 17.8
Value for NaPi-III [DRSC10893] in “infection score, replicate 1”: 8.3
Under “infection score, replicate 2”, RpL15 [DRSC20963] shows 1.66
